From PMC10150623 (Journal of Enzyme Inhibition and Medicinal Chemistry, 2023) come the findings set out here.

By UniProt entry, the sequences of proteins in these tests, tags left out. Residues count along the entry.
UniProt P0DPI0, 1-448 limits assumed: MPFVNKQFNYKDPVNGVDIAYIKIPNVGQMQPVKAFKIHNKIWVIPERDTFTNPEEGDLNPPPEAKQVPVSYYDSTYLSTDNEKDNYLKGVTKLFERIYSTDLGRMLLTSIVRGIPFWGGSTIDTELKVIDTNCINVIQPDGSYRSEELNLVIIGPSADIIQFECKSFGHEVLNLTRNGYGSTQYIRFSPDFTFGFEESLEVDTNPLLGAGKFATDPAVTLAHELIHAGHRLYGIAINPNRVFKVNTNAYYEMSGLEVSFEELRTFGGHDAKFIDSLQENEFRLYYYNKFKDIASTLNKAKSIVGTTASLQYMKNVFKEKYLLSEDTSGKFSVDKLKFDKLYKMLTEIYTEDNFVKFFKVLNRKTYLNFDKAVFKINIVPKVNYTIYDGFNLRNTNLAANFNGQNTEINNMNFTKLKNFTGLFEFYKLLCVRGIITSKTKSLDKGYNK

The target of this assay is BoNT/A LC (1–448 aa) (Clostridium botulinum, UniProt P0DPI0).

Turning to `N=C(N)NCCC[C@H](NC(=O)[C@@H](N)CCCNC(=N)N)C(=O)NCC(=O)N[C@@H](Cc1c[nH]c2ccccc12)C(=O)O` [RRGW], the Ki is 790 nM.
